Assay results published in patent publication USRE37781E1, “Substituted cyclic carbonyls and derivatives thereof useful as retroviral protease inhibitors” (DuPont Pharmaceuticals Company, priority 1991, dated 2002).

Each compound was assayed against HIV protease (Human immunodeficiency virus type 1 group M subtype B, UniProt P04585). Settings: Table 1e.
For NC(=NO)c1cccc(CN2C(=O)N(Cc3cccc(C(N)=NO)c3)[C@H](Cc3ccc(F)cc3)[C@H](O)[C@H]2CCc2ccc(F)cc2)c1, the Ki was < 10 nM.
For NC(=NO)c1cccc(CN2C(=O)N(Cc3cccc(C(N)=NO)c3)[C@H](Cc3ccc(F)c(F)c3)[C@H](O)[C@H]2CCc2ccc(F)c(F)c2)c1, the Ki was < 10 nM.
CNc1cccc(CN2C(=O)N(Cc3cccc(NC)c3)[C@H](C(Br)Cc3ccccc3)[C@@H](O)[C@H]2Cc2ccccc2)c1 (stereo partly drawn) gave a Ki of 10 to 1000 nM.
In the case of O=C1NC(CCc2ccccc2)[C@@H](O)[C@@H](Cc2ccccc2)N1Cc1cccc(O)c1 (stereo partly drawn), the Ki is reported as < 10 nM.
With NC(=NO)c1cc(CN2C(=O)N(Cc3ccc(F)c(C(N)=NO)c3)[C@H](Cc3ccccc3)[C@H](O)[C@H]2CCc2ccccc2)ccc1F the Ki was < 10 nM.
CNc1cccc(CN2C(=O)N(Cc3cccc(NC)c3)[C@H](Cc3ccccc3)[C@H](O)[C@H]2CCc2ccccc2)c1 was tested, and the Ki was < 10 nM.
With NC(=O)c1cccc(CN2C(=O)N(Cc3cccc(C(N)=O)c3)[C@H](Cc3ccccc3)[C@H](O)[C@H]2CCc2ccccc2)c1 the Ki was < 10 nM.
For NC(=O)c1cc(CN2C(=O)N(Cc3ccc(F)c(C(N)=O)c3)[C@H](Cc3ccccc3)[C@H](O)[C@H]2CCc2ccccc2)ccc1F, the Ki was < 10 nM.
In the case of NC(=O)c1cccc(CN2C(=O)N(Cc3cccc(C(N)=O)c3)[C@H](Cc3ccc(F)cc3)[C@H](O)[C@H]2CCc2ccc(F)cc2)c1, the Ki is reported as < 10 nM.

Each compound was assayed on HIV-1 (RF) in MT-2 cells. Settings: Table 1e.
With NC(=NO)c1cccc(CN2C(=O)N(Cc3cccc(C(N)=NO)c3)[C@H](Cc3ccc(F)cc3)[C@H](O)[C@H]2CCc2ccc(F)cc2)c1 the IC90 was “+++ (+++=<10 μg/mL)”.
With NC(=NO)c1cccc(CN2C(=O)N(Cc3cccc(C(N)=NO)c3)[C@H](Cc3ccc(F)c(F)c3)[C@H](O)[C@H]2CCc2ccc(F)c(F)c2)c1 the IC90 was “+++ (+++=<10 μg/mL)”.
For CNc1cccc(CN2C(=O)N(Cc3cccc(NC)c3)[C@H](C(Br)Cc3ccccc3)[C@@H](O)[C@H]2Cc2ccccc2)c1 (stereo partly drawn), the IC90 was “+++ (+++=<10 μg/mL)”.
For O=C1NC(CCc2ccccc2)[C@@H](O)[C@@H](Cc2ccccc2)N1Cc1cccc(O)c1 (stereo partly drawn), the IC90 was “+++ (+++=<10 μg/mL)”.
In the case of NC(=NO)c1cc(CN2C(=O)N(Cc3ccc(F)c(C(N)=NO)c3)[C@H](Cc3ccccc3)[C@H](O)[C@H]2CCc2ccccc2)ccc1F, the IC90 is reported as “+++ (+++=<10 μg/mL)”.
In the case of CNc1cccc(CN2C(=O)N(Cc3cccc(NC)c3)[C@H](Cc3ccccc3)[C@H](O)[C@H]2CCc2ccccc2)c1, the IC90 is reported as “+++ (+++=<10 μg/mL)”.
In the case of NC(=O)c1cccc(CN2C(=O)N(Cc3cccc(C(N)=O)c3)[C@H](Cc3ccccc3)[C@H](O)[C@H]2CCc2ccccc2)c1, the IC90 is reported as “+++ (+++=<10 μg/mL)”.
With NC(=O)c1cc(CN2C(=O)N(Cc3ccc(F)c(C(N)=O)c3)[C@H](Cc3ccccc3)[C@H](O)[C@H]2CCc2ccccc2)ccc1F the IC90 was “+++ (+++=<10 μg/mL)”.
With NC(=O)c1cccc(CN2C(=O)N(Cc3cccc(C(N)=O)c3)[C@H](Cc3ccc(F)cc3)[C@H](O)[C@H]2CCc2ccc(F)cc2)c1 the IC90 was “+++ (+++=<10 μg/mL)”.
